The text below walks through data of patent publication EP4670733A1, “METHODS FOR PREPARING VIRAL PROTEINS AND USES THEREOF” (priority 2024, dated 2025).

Where two headings read alike, the source gives them in different places.

For data set [1], the system named is A/H1N1/Michigan/45/15 X-275 (H1N1) virus strain. In words: Splitting procedure, HA content by single radial immunodiffusion (SRID) assay. Further details: species or system influenza virus.
The test system is the same in data set [2]. Description: Splitting procedure, protein content (chemiluminescence or colorimetric assay) and SRID/protein ratio. As to conditions: detergent at target concentration of Table 1, 22°C, 1 hour; FIG. 1. Further details: species or system influenza virus.
Data set [3] shares this test system. In words: Particle size by dynamic light scattering (DLS). The data set is classed as physicochemical, influenza virus.
Data set [4] shares this test system. Further details: species or system influenza virus.
The mark [5] stands for this setting: compared with Triton X100 positive control, detergent at target concentration of Table 1, 22°C, 1 hour, 225 rpm, FIG. 1.
[6] abbreviates: Sample E4 (downstream process after splitting).

For `CCCCCCCCCCCC[N+](C)(C)[O-]` [LDAO], in data set [1] (setting [5]), the SRID titer entry is “equivalent to that of the positive control”.
With `CCCCCCCCCCCCCC[N+](C)(C)[O-]` [TDAO], in data set [1] (setting [5]), the SRID titer entry is given as “equivalent to that of the positive control”.
Consider C11-15-secondary alcohol ethoxylates, for which the SRID titer result in data set [1] (at a concentration of more than 0.45% (v/v), Prediction Profiler of JMP) was “more than 1000 µg/mL”; in data set [1] (setting [5]) it was “equivalent to that of the positive control”. Also, the SRID/Protein ratio in data set [2] was 58%. Besides, in data set [3] (Sample E2, compared to the No Detergent control, FIG. 2A-2F), the particle size distribution entry is given as “reduced the particle size distribution after splitting”. Moreover, in data set [3] (drug substance, Sample E6), the “particle size, first population” value is less than 100 nm. In addition, in data set [3] (drug substance, Sample E6), the “particle size, second population” value is reported as greater than 200 nm. Further, the “particle size distribution profile (DLS)” value in data set [3] (drug substance, Sample E6, […]) is recorded as “comparable profile as the drug substance obtained using Triton X-100”. Further, the “Infectious titers on eggs” value in data set [4] (Sample E0 (before splitting)) came out at 11.00 log10CCID50/mL; in data set [4] (setting [6]), 4.60 log10CCID50/mL.
Turning to Triton X-100 [reference compound], the SRID/Protein ratio in data set [2] was 55%. The results for the “Infectious titers on eggs” value in data set [4] (Sample E0 (before splitting)) and in data set [4] (setting [6]) were 11.05 log10CCID50/mL and 4.09 log10CCID50/mL, respectively.
